Measurements as given in patent US6689782B2, “Fungal efflux pump inhibitors” (priority 2001, dated 2004).

Key:
[1] = system: Candida albicans YEM15 (over-expressing the CDR1 and CDR2 pumps); assay: checkerboard assay / broth microdilution, potentiation of fluconazole vs. C. albicans; conditions: 48 h
[2] = system: C. glabrata YEM19 (over-expressing the CgCDR1 and CgCDR2 pumps); assay: checkerboard assay / broth microdilution, potentiation of fluconazole vs. C. glabrata; conditions: Nakaseomyces glabratus, 48 h

SMILES	MIC [1] [µg/mL]	MIC [2] [µg/mL]
COc1ccc(N(C(=O)Nc2ccc(F)cc2)C(C)c2nc3ccccc3c(=O)n2N2CCN(C(=O)[C@@H](NC(=O)OC(C)(C)C)[C@H](C)O)CC2)c(OC)c1 (mixture of isomers) [Compound 272]	> 32	> 32
COc1ccc(N(C(=O)Nc2ccc(F)cc2)C(C)c2nc3ccccc3c(=O)n2N2CCN(C(=O)[C@@H](NC(=O)OC(C)(C)C)C(C)C)CC2)c(OC)c1 (mixture of isomers) [Compound 279]	> 32	> 32
CC[C@H](N)C(=O)N1CCN(n2c(C(C)N(C(=O)Nc3ccc(F)cc3)c3ccc(OC)cc3OC)nc3ccc(Cl)cc3c2=O)CC1 (mixture of isomers) [Compound 281]	> 32	> 32
CC[C@H](N)C(=O)N1CCN(n2c(C(C)N(C(=O)Nc3ccc(F)cc3)c3ccc(OC)cc3OC)nc3cc(Cl)ccc3c2=O)CC1 (mixture of isomers) [Compound 282]	> 32	> 32
CCOC(=O)N[C@@H](CC)C(=O)N1CCN(n2c(C(C)N(C(=O)Nc3ccc(F)cc3)c3ccc(OC)cc3OC)nc3ccccc3c2=O)CC1 (mixture of isomers) [Compound 285]	> 32	> 32
CC[C@H](NC(=O)OC(C)C)C(=O)N1CCN(n2c(C(C)N(C(=O)Nc3ccc(F)cc3)c3ccc(OC)cc3OC)nc3ccccc3c2=O)CC1 (mixture of isomers) [Compound 286]	> 32	> 32
CC[C@H](NC(=O)OC)C(=O)N1CCN(n2c(C(C)N(C(=O)Nc3ccc(F)cc3)c3ccc(OC)cc3OC)nc3cc(F)c(F)cc3c2=O)CC1 (mixture of isomers) [Compound 287]	> 32	> 32
CC[C@H](NC(=O)OC)C(=O)N1CCN(n2c(C(C)N(C(=O)Nc3ccc(F)cc3)c3ccc(OC)cc3OC)nc3ccc(Cl)cc3c2=O)CC1 (mixture of isomers) [Compound 288]	> 32	> 32
CC[C@H](NC(=O)OC)C(=O)N1CCN(n2c(C(C)N(C(=O)Nc3ccc(F)cc3)c3ccc(OC)cc3OC)nc3cc(Cl)ccc3c2=O)CC1 (mixture of isomers) [Compound 289]	> 32	> 32
CC[C@H](NC(=O)OC)C(=O)N1CCN(n2c(C(C)N(C(=O)Nc3ccc(F)cc3)c3ccc(OC)cc3OC)nc3cc(F)ccc3c2=O)CC1 (mixture of isomers) [Compound 290]	> 32	> 32
CC[C@H](NC(=O)OC)C(=O)N1CCN(n2c(C(C)N(C(=O)Nc3ccc(F)cc3)c3ccc(OC)cc3OC)nc3ccccc3c2=O)CC1 (mixture of isomers) [Compound 291]	> 32	> 32
CC[C@H](NC(=O)OC(C)(C)C)C(=O)N1CCN(n2c(C(C)N(C(=O)Nc3ccc(F)cc3)c3ccc(OC)cc3OC)nc3ccccc3c2=O)CC1 (mixture of isomers) [Compound 292]	> 32	> 32
CCOC(=O)N[C@H](C(=O)N1CCN(n2c(C(C)N(C(=O)Nc3ccc(F)cc3)c3ccc(OC)cc3OC)nc3ccccc3c2=O)CC1)C(C)C (mixture of isomers) [Compound 293]	> 32	> 32
COc1ccc(N(C(=O)Nc2ccc(F)cc2)C(C)c2nc3ccccc3c(=O)n2N2CCN(C(=O)[C@@H](NC(=O)OC(C)C)C(C)C)CC2)c(OC)c1 (mixture of isomers) [Compound 294]	> 32	> 32
COC(=O)N[C@H](C(=O)N1CCN(n2c(C(C)N(C(=O)Nc3ccc(F)cc3)c3ccc(OC)cc3OC)nc3ccccc3c2=O)CC1)C(C)C (mixture of isomers) [Compound 295]	> 32	> 32
COC(=O)N[C@H](C)C(=O)N1CCN(n2c(C(C)N(C(=O)Nc3ccc(F)cc3)c3ccc(OC)cc3OC)nc3cc(F)c(F)cc3c2=O)CC1 (mixture of isomers) [Compound 296]	> 32	> 32
CCOC(=O)N(C)[C@@H](C)C(=O)N1CCN(n2c(C(C)N(C(=O)Nc3ccc(F)cc3)c3ccc(OC)cc3OC)nc3ccccc3c2=O)CC1 (mixture of isomers) [Compound 298]	> 32	> 32
COc1ccc(N(C(=O)Nc2ccc(F)cc2)C(C)c2nc3ccccc3c(=O)n2N2CCN(C(=O)[C@H](C)N(C)C(=O)OC(C)C)CC2)c(OC)c1 (mixture of isomers) [Compound 299]	> 32	> 32
